{"source": "patent US11015179B2", "about": "“Peptide having anti-viral effect and composition containing same” (priority 2015, dated 2021)", "key": {"[1]": {"tested_on": "MT-4 cells", "assay": "Cell cytotoxicity assay, MT-4 cells", "type": "cell-based, human", "details": "up to 25 μM, 5 days", "protocol": "(§1) MT-4, 1G5 or ACH-2 cells were seeded in a 96-well microplate at a density of 1×10^4 cells/well, and incubated with increasing concentrations of PEP1 for 5 days. Cell viability was determined by colorimetry using a CellTiter96 Aqueous One Solution assay kit (Promega, Wis.) according to the manufacturer's instructions. To assess the cell protective effect of PEP1 from HIV-1-induced cell death, MT-4 cells (1×10^4) were infected with the HIV-1 virus (4×10^5 CCID50) for 5 days with or without PEP1, and subjected to a cell viability assay."}, "[2]": {"tested_on": "1G5 cells", "assay": "Cell cytotoxicity assay, 1G5 cells", "type": "cell-based, human", "details": "up to 25 μM, 5 days", "protocol": "as §1"}, "[3]": {"tested_on": "ACH-2 cells", "assay": "Cell cytotoxicity assay, ACH-2 cells", "type": "cell-based, human", "details": "up to 25 μM, 5 days", "protocol": "as §1"}, "[4]": {"tested_on": "HIV-1", "protocol": "The MT-4 cells (4×10^5 cells) were infected with HIV-1 (4×10^5 50% cell culture infective dose (CCID50)) for one hour. […] After two days of incubation, images of the MT-4 cells expressing eGFP were obtained using a fluorescence microscope before harvesting the cells. To remove cell debris, the collected supernatant was subjected to centrifugation at 13,000 rpm for 3 minutes, and to measure an extracellular viral amount, p24 ELISA or RNA extraction was performed for a reverse transcription-quantitative polymerase chain reaction (RT-qPCR). Meanwhile, the cell pellets were washed with D-PBS twice, and used for a cell viability assay. […] HIV-1 replication was analyzed by p24 ELISA, and eGFP was monitored using a fluorescent microscope.\n(§2) To measure HIV-1 virus titers, HIV-1 p24 antigen capture ELISA (p24 ELISA, ABL) and RT-qPCT assay were performed according to the manufacturer's instructions. HIV-1 RNA genomes were purified from the cell culture supernatants and pellets using a QIAamp Ultrasens Virus kit (Qiagen, Hilden, Germany) according to the manufacturer's instructions. The HIV-1 RNA levels were quantified by RT-qPCR using a primer pair specific to gag of HIV-1. Glyceraldehyde phosphate dehydrogenase (GAPDH) was used as a reference gene for normalization. The following primer pairs were used for qPCR: Gag, 5′-[…]-3′ (sense, SEQ ID NO: 5) and 5′-[…]-3′ (antisense, SEQ ID NO: 6); and GAPDH, 5′-[…]-3′ (sense, SEQ ID NO: 7) and 5′-[…]-3′ (antisense, SEQ ID NO: 8). An HIV type 1 Genesig Standard kit (Primerdesign, Southampton, UK) was used to measure virus titers. The concentration of the stocked virus was 2×10^5 copies/μl."}, "[5]": {"tested_on": "HIV-1-infected MT-4 cells", "assay": "Cell protective effect from HIV-1-induced cell death in MT-4 cells", "type": "cell-based, human", "details": "5 days", "protocol": "as §1\nIt has been known that apoptosis of HIV-infected cells occurs by an intracellular cell death mechanism."}, "[6]": {"tested_on": "HIV-1 viral mRNA", "assay": "HIV-1 viral mRNA level by RT-qPCR in MT-4 cells", "type": "cell-based", "protocol": "as §2"}, "[7]": {"tested_on": "HIV-1 Tat transactivation", "assay": "HIV-LTR-luciferase assay in 1G5 cells transfected with Tat plasmids", "type": "cell-based", "details": "four days", "protocol": "An HIV-1 transactivation protein (Tat) is a regulatory protein dramatically enhancing HIV-1 transcription through the interaction with the tat-transcriptional active region (TAR). […] In the present invention, as a Jurkat-derived cell line, 1G5 containing a stably-inserted HIV-LTR-luciferase construct was used.\nThe 1G5 cells were transfected with Tat plasmids. […] Four days after the infection, the transactivation of HIV-LTR was analyzed through a luciferase assay."}, "[8]": {"tested_on": "NF-κB", "assay": "NF-κB dual-luciferase assay in MT-4 cells", "type": "cell-based, human", "excerpt": "(§3) NF-κB triggers HIV transcription by interacting with an NF-κB-binding site in HIV-LTR, and increases the activation of TAT-mediated LTR […]. In addition, Tat can directly activate NF-κB. Recently, there have been studies showing that eHSP90 can regulate various intracellular signaling pathways, including the NF-κB pathway."}, "[9]": {"tested_on": "p65 NF-κB", "assay": "Electrophoretic mobility shift assay (EMSA) of NF-κB in MT-4 cells", "type": "cell-based, human", "details": "nuclear fraction, 24 hours", "excerpt": "as §3, with “pathway. […] A similar result was obtained from ACH-2 cells latently infected with HIV-1 (FIG. 40).” for “pathway.”"}, "[10]": {"tested_on": "NF-κB (p65)", "assay": "NF-κB (p65) phosphorylation", "type": "cell-based, human", "excerpt": "as §3, with “pathway. […] A similar result was obtained from ACH-2 cells latently infected with HIV-1 (FIG. 40).” for “pathway.”"}, "[11]": {"tested_on": "HIV-1", "details": "MT-4 cells"}, "[12]": {"tested_on": "HIV-1", "details": "ACH-2 cells"}}, "data": [{"smiles": "CC[C@H](C)[C@H](NC(=O)[C@H](Cc1ccccc1)NC(=O)[C@H](CCCNC(=N)N)NC(=O)[C@H](CC(C)C)NC(=O)[C@H](CCCNC(=N)N)NC(=O)[C@H](CO)NC(=O)[C@@H](NC(=O)[C@H](CC(C)C)NC(=O)[C@H](CC(C)C)NC(=O)[C@H](C)NC(=O)[C@@H]1CCCN1C(=O)[C@H](CCCNC(=N)N)NC(=O)[C@H](C)NC(=O)[C@@H](N)CCC(=O)O)[C@@H](C)O)C(=O)N1CCC[C@H]1C(=O)N[C@@H](CCCCN)C(=O)O", "note": "[PEP1, EARPALLTSRLRFIPK]", "values": [{"measurement": "Cytotoxicity", "setting": "[1]", "result": "did not exhibit significant cytotoxicity"}, {"measurement": "Cytotoxicity", "setting": "[2]", "result": "did not exhibit significant cytotoxicity"}, {"measurement": "Cytotoxicity", "setting": "[3]", "result": "did not exhibit significant cytotoxicity"}, {"measurement": "Decrease in viral RNA level", "setting": "[4]; 5 μM PEP1, HIV-1-infected MT-4 cells", "result": "approximately 100 times"}, {"measurement": "eGFP production", "setting": "[4]; HIV-1-infected MT-4 cells", "result": "decreased"}, {"measurement": "Anti-HIV effect in the presence of 17-AAG", "setting": "[4]; MT-4 cells, 17-AAG 1 μM, p24 ELISA", "result": "eliminated the PEP1 effect"}, {"measurement": "Inhibition of eGFP expression after anti-HSP90 antibodies", "setting": "[4]; MT-4 cells, fluorescence / immunoblotting", "result": "restored"}, {"measurement": "Inhibition of HIV-1 production after anti-GAPDH antibodies (isotype control)", "setting": "[4]; MT-4 cells, p24 ELISA", "result": "no significant effect"}, {"measurement": "Inhibition of HIV-1 production after anti-HSP70-neutralization antibodies", "setting": "[4]; MT-4 cells, p24 ELISA", "result": "partial restoration"}, {"measurement": "Inhibition of HIV-1 production after anti-HSP90 neutralization antibodies", "setting": "[4]; MT-4 cells, p24 ELISA", "result": "completely restored"}, {"measurement": "IC50", "setting": "[4]; read-out: mean 50% inhibitory concentration (IC50), production of viral particles, HIV-1-infected MT-4 cells, p24 ELISA", "result": "~850", "unit": "nM"}, {"measurement": "Cell protective action from HIV-1-mediated cell death", "setting": "[5]; 5 μM, MT-4 cells", "result": "~100", "unit": "%"}, {"measurement": "Cell protective effect", "setting": "[5]; HIV-1-infected MT-4 cells", "result": "considerable cell protective effects in a dose-dependent manner"}, {"measurement": "Housekeeping host GAPDH mRNA synthesis", "setting": "[6]", "result": "no significant change"}, {"measurement": "Viral mRNA production, treated 9 hours after infection", "setting": "[6]", "result": "effectively inhibited"}, {"measurement": "Viral mRNA, treated 13 hours after infection", "setting": "[6]", "result": "lost the activity to reduce viral mRNA"}, {"measurement": "HIV-LTR luciferase activity activated by ectopic expression of Tat", "setting": "[7]", "result": "inhibits the activation of HIV-LTR luciferase activity"}, {"measurement": "NF-κB inhibitory effect after HSP90 blocking antibodies or HSP inhibitor", "setting": "[8]", "result": "completely eliminated"}, {"measurement": "NF-κB inhibitory effect after anti-GAPDH antibodies", "setting": "[8]", "result": "no significant effects"}, {"measurement": "Basal NF-κB activity", "setting": "[8]; 24 hours", "result": "dramatically reduced"}, {"measurement": "p65 NF-κB activation (DNA binding)", "setting": "[9]", "result": "apparent decrease"}, {"measurement": "NF-κB (p65) phosphorylation", "setting": "[10]", "result": "decrease in NF-κB (p65) phosphorylation"}, {"measurement": "Inhibitory activity by eGFP expression when treated 12 hours after infection", "setting": "[11]", "result": "weakened"}, {"measurement": "PMA-increased supernatant p24 level", "setting": "[12]; PMA 50 nM, 24 hours, p24 ELISA", "result": "eliminated almost all of such an effect"}, {"measurement": "Viral genomic RNA of produced viral particles after PMA", "setting": "[12]; RT-qPCR, stepwise increasing concentrations", "result": "considerably reduced in a dose-dependent manner"}]}]}
